# pIC50: −log10 of the molar value.
# By UniProt entry, the sequences of proteins in these tests, tags left out. Where a name states a change or a piece, a line headed by the entry shows the natural chain unless it says otherwise. Residues count along the entry.
# UniProt Q9GZZ6, 25-450 limits assumed: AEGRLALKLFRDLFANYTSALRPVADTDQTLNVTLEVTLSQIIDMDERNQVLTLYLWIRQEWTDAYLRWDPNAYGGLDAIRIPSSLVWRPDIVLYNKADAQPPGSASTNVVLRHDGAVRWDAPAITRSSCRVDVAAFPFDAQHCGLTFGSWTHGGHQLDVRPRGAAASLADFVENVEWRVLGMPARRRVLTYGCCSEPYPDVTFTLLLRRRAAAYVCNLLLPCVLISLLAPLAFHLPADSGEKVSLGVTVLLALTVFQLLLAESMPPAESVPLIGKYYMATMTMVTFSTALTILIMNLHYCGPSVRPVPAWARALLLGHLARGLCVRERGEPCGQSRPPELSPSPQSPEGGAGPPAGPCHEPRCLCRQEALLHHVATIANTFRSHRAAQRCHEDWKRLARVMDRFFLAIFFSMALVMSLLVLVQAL
# UniProt Q9UGM1, 26-479 limits assumed: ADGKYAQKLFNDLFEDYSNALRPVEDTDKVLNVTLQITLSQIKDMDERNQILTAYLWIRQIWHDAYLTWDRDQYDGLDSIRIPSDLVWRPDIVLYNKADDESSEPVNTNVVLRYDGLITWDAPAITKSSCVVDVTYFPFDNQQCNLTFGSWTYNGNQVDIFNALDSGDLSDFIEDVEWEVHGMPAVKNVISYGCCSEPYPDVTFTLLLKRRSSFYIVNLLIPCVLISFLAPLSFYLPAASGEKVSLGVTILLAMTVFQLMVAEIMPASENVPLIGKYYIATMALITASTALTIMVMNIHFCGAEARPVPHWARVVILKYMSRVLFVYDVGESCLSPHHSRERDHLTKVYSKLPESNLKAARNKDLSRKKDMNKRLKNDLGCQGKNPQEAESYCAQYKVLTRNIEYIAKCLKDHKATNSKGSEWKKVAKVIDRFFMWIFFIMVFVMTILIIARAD
# UniProt P09483, 31-630 limits assumed: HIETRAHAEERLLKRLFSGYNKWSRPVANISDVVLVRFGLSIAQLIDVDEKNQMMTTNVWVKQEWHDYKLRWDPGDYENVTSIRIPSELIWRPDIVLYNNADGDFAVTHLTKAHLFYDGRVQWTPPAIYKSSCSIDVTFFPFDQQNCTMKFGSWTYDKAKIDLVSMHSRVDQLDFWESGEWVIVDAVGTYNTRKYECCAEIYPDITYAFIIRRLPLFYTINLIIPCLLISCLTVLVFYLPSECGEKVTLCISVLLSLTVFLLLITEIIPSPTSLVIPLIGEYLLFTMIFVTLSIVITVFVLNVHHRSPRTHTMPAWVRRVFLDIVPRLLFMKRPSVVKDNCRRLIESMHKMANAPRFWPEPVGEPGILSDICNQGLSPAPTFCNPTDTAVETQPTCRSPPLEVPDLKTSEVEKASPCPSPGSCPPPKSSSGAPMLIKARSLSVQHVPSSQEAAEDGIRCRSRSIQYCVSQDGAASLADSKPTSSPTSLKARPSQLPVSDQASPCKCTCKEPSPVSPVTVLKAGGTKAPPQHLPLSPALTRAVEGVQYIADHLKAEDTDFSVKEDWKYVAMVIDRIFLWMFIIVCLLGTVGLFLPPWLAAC
# UniProt P12390, 25-500 limits assumed: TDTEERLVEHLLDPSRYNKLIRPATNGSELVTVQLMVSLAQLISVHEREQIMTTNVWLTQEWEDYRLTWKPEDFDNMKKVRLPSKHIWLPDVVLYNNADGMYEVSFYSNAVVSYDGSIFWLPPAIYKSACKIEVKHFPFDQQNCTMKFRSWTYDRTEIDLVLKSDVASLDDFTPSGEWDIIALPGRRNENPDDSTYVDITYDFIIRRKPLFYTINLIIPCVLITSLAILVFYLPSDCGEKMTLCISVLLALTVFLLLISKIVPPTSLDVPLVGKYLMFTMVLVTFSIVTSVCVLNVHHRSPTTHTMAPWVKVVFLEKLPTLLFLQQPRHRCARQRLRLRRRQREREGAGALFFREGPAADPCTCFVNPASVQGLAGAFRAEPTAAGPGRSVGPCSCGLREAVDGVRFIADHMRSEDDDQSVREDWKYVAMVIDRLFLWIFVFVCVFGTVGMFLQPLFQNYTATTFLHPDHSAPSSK
# UniProt P11230, 24-501 partner limits assumed: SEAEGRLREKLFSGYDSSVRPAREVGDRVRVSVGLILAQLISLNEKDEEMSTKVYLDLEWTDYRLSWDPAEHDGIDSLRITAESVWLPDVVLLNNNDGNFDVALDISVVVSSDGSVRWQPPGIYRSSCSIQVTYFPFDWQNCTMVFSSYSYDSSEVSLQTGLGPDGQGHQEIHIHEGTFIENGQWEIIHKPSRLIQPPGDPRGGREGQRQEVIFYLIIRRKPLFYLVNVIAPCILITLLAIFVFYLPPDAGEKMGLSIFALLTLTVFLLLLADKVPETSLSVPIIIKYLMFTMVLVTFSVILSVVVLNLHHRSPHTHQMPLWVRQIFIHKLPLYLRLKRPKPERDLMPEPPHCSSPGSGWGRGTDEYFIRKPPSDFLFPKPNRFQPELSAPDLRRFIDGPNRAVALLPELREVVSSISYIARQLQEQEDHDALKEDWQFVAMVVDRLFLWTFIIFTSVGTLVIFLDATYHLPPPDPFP
# UniProt Q07001, 22-517 limits assumed: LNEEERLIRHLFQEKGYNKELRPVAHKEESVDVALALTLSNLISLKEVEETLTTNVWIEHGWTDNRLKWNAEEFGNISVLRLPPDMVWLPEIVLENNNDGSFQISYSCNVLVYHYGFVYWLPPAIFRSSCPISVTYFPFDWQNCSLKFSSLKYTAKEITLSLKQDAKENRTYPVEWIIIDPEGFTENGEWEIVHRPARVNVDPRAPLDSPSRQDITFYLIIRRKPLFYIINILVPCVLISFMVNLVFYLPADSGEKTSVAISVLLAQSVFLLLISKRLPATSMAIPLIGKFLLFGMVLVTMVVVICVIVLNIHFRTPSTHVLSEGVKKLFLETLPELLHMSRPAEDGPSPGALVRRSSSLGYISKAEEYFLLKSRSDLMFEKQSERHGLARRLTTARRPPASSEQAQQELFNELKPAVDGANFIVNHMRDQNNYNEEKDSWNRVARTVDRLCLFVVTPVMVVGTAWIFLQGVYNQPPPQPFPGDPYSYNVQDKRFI
# Legend:
# human α9α10 nAChR = human α9α10 nAChR (Homo sapiens, UniProt Q9GZZ6+Q9UGM1); assay: Block of ACh-gated currents (IACh) in voltage-clamped X. laevis oocytes, hα9α10; conditions: 10 μM, highest concentration tested
# [1] = tested on: R. pipiens cutaneous pectoralis (CP) muscle; assay: Extracellular recording, synaptic responses in μ-PIIIA-treated R. pipiens CP muscle; conditions: 100 μM; muscle treated with μ-PIIIA
# [2] = tested on: R. pipiens cutaneous pectoralis (CP) muscle; assay: Extracellular recording, indirectly-evoked action potentials, R. pipiens CP muscle; conditions: 100 μM
# muscle nAChR = assay: Ion-channel target of paralytic conotoxins: muscle nAChR; conditions: this report
# [3] = tested on: X. laevis longitudinal pectoralis (LP) muscle; assay: Extracellular recording, action potentials evoked by motor-nerve (indirect) stimulation, X. laevis LP muscle; conditions: 10 μM; replicated in three other preparations
# [4] = tested on: neuromuscular junction of Rana pipiens; assay: Block of synaptic transmission at R. pipiens neuromuscular junction (original characterization); conditions: not previously reported
# [5] = tested on: NMJs of embryonic zebrafish muscle (αβδγ nAChRs); assay: Predicted protection of embryonic muscle NMJs against fluorescent α-BgTX; conditions: no experiments on embryonic zebrafish muscle performed
# [6] = tested on: nACh receptors of X. laevis and goldfish muscles; assay: Concentration-dependent block of synaptically- and ACh-evoked responses, combined frog and fish NMJs; conditions: read-out: IC50 (aggregate estimate); estimated to be within about a factor of two of 0.1 μM; EPSPs, MEPSPs, ACh-evoked responses combined; Langmuir curves
# [7] = tested on: X. laevis longitudinal pectoralis (LP) muscle (V-gated Na channels); assay: Extracellular recording, action potentials evoked by direct stimulation, X. laevis LP muscle; conditions: five-times higher concentration than 10 μM
# rat α4β2 nAChR = rat α4β2 nAChR (Rattus norvegicus, UniProt P09483+P12390); assay: Block of ACh-gated currents (IACh) in voltage-clamped X. laevis oocytes, rα4β2; conditions: 10 μM, highest concentration tested
# [8] = tested on: mouse levator auris longus (LAL) muscle; assay: Extracellular recording, indirectly-evoked action potential, mouse LAL muscle; conditions: 10 μM
# [9] = tested on: nAChRs in X. laevis LP muscle; assay: Intracellular recording of EPSPs, MEPSPs and ACh-evoked PSPs, X. laevis LP muscle; conditions: for block of EPSPs: nerve-stimulation evoked, μ-PIIIA-pretreated; for block of MEPSPs: spontaneous
# [10] = tested on: nAChRs at goldfish IC muscle NMJs; assay: Fluorescence imaging of TMR α-BgTX binding at goldfish IC NMJs; conditions: 10 μM αM-MIIIJ; 1 μg/mL TMR α-BgTX, 10 min (Treatment I)
# human αβδε nAChR = human αβδε nAChR (Homo sapiens, UniProt P02708+P11230+Q04844+Q07001); assay: Block of ACh-gated currents (IACh) in voltage-clamped X. laevis oocytes, hαβδε; conditions: adult human muscle nAChR in oocytes
# [11] = tested on: nAChRs in goldfish intercostal (IC) muscle; assay: Intracellular recording of MEPSPs, goldfish intercostal (IC) muscle; conditions: 1 μM; fibers D–F; no MEPSPs above noise
# [12] = tested on: nAChRs at R. pipiens CP muscle NMJs; assay: Fluorescence imaging of TMR α-BgTX binding at R. pipiens CP NMJs; conditions: 10 μM αM-MIIIJ + 1 μg/mL TMR α-BgTX (reserved solution)
# [13] = tested on: X. laevis longitudinal pectoralis (LP) muscle; assay: Extracellular recording, synaptic responses in μ-PIIIA-treated X. laevis LP muscle; conditions: 10 μM; muscle treated with μ-PIIIA (10 μM)
structure (smiles),measurement,setting,value
CC[C@H](C)[C@@H]1NC(=O)[C@H](CC(C)C)NC(=O)[C@H](CCCNC(=N)N)NC(=O)[C@H](CC(=O)O)NC(=O)[C@H](CCCNC(=N)N)NC(=O)[C@H](Cc2ccccc2)NC(=O)[C@H](Cc2ccc(O)cc2)NC(=O)[C@H](CC(C)C)NC(=O)[C@@H]2CCCN2C(=O)[C@@H]2CSSC[C@@H](C(=O)O)NC(=O)[C@@H]3CSSC[C@H](NC(=O)[C@H](CCCCN)NC(=O)[C@@H]4CCC(=O)N4)C(=O)N[C@@H](CSSC[C@H](NC1=O)C(=O)N1CCC[C@H]1C(=O)N3)C(=O)N[C@@H](CO)C(=O)NCC(=O)NCC(=O)N[C@@H](CO)C(=O)N2 [αM-MIIIJ],block of IACh,human α9α10 nAChR,failed to block IACh
same,effect on synaptic responses,[1],essentially unaffected
same,effect on indirectly-evoked action potentials,[2],essentially unaffected
same,Ion-Channel Target,muscle nAChR,muscle nAChR
same,block of action potentials evoked by nerve stimulation,[3],completely blocked action potentials
same,block of synaptic transmission,[4],inactive in blocking synaptic transmission
same,protection of NMJs of embryonic muscle against staining by fluorescent α-BgTX,[5],only partially protect
same,pIC50,[6],7.00
same,block of action potentials evoked by direct stimulation,[7],essentially no effect
same,block of IACh,rat α4β2 nAChR,failed to block IACh
same,block of action potentials evoked by motor-nerve stimulation,[8],blocked muscle action potentials
same,block of responses to iontophoretically-applied ACh,[9]; 0.2 μM,> 50%
same,block of EPSPs,[9]; 0.2 μM,> 50%
same,block of MEPSPs,[9]; 0.2 μM,> 50%
same,block of responses to iontophoretically-applied ACh,[9]; 10 μM,100%
same,block of EPSPs,[9]; 10 μM,100%
same,block of MEPSPs,[9]; 10 μM,100%
same,TMR α-BgTX staining in presence of αM-MIIIJ,[10],Minimal TMR α-BgTX staining
same,IC50 relative to zebrafish nAChRs,human αβδε nAChR,~ 100 times
same,block of MEPSPs,[11],> 80%
same,inhibition of TMR α-BgTX binding,[12],did not interfere with the binding of α-BgTX
same,block of synaptic responses,[13],reversibly blocked
same,pIC50,zebrafish αβδε nAChR,7.24
same,pIC50,zebrafish αβδγ nAChR,7.21

# Source: publication PMC7150935 (Toxins, 2020)
